# Potato spindle tuber viroid, loop 15: variant abundance in plants

Reference: Wu et al. 2024, doi:10.1371/journal.ppat.1012142.

The pool varies loop 15 of the PSTVd intermediate strain in the pattern GGAAACCGNNNNNNC; wild type is GGAAACCGCUACUAC (upper and lower strand joined, each 5' to 3', the first 7 letters being the upper strand, closing pairs included).

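A pool of all variants was put on leaves of three Nicotiana benthamiana plants. Progeny were sequenced from the inoculated region (day 5), the margin of the inoculated leaf (day 10) and systemic leaves (day 12).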

Numbers give reads per thousand; 0 = not seen among the reads, higher = more abundant.
Each site shows the three plants.
"Pool" is the share in the plasmid pool used as inoculum, on the same scale.
The inoculated region was read from the minus strand, the other sites from the plus strand.
Samples held 43,870 to 66,106 reads, so the smallest values rest on one or two reads.
The authors trace changes outside the varied positions to PCR and sequencing errors or to mutation in the plant; presence does not show that a variant is infectious alone.
Wild type was 33.9 per thousand in the pool and the most common sequence in every sample (inoculated region 202, 200, 159; leaf margin 724, 746, 710; systemic leaves 856, 883, 880).

| sequence | pool | inoculated region | leaf margin | systemic leaves |
|---|---|---|---|---|
| GGAAACCGCCCCCCC | 0.224 | 0.0983 / 0.0482 / 0.0762 | 0.0162 / 0 / 0.0200 | 0 / 0 / 0 |
| GGAAACCGCCCCCGC | 0.256 | 0.131 / 0.0643 / 0.0762 | 0.0162 / 0.0668 / 0 | 0.0161 / 0 / 0 |
| GGAAACCGCCCCCUC | 0.256 | 0.115 / 0.0803 / 0.190 | 0.0162 / 0 / 0.0200 | 0 / 0 / 0 |
| GGAAACCGCCCCGAC | 0.288 | 0.344 / 0.225 / 0.190 | 0 / 0 / 0.0200 | 0.0161 / 0 / 0 |
| GGAAACCGCCCCGCC | 0.304 | 0.0655 / 0.161 / 0.0762 | 0.0162 / 0 / 0 | 0 / 0 / 0 |
| GGAAACCGCCCCGGC | 0.288 | 0.115 / 0.0643 / 0.0952 | 0 / 0 / 0 | 0 / 0 / 0 |
| GGAAACCGCCCCGUC | 0.176 | 0.131 / 0.193 / 0.133 | 0 / 0.0223 / 0 | 0 / 0.0151 / 0 |
| GGAAACCGCCCCUAC | 0.224 | 0.360 / 0.337 / 0.305 | 0.0808 / 0.0668 / 0.220 | 0.0483 / 0.0756 / 0.0684 |
| GGAAACCGCCCCUCC | 0.336 | 0 / 0.0964 / 0.0952 | 0 / 0 / 0 | 0 / 0 / 0 |
| GGAAACCGCCCCUGC | 0.288 | 0.0819 / 0.0803 / 0.152 | 0.0485 / 0 / 0.0200 | 0 / 0 / 0 |
| GGAAACCGCCCCUUC | 0.176 | 0.377 / 0.321 / 0.248 | 0.0808 / 0.200 / 0.140 | 0.0161 / 0 / 0 |
| GGAAACCGCCCGAAC | 0.192 | 0.213 / 0.305 / 0.343 | 0.178 / 0.0668 / 0.100 | 0.0483 / 0 / 0 |
| GGAAACCGCCCGACC | 0.320 | 0.0491 / 0.0964 / 0.152 | 0.0162 / 0 / 0.0401 | 0 / 0 / 0 |
| GGAAACCGCCCGAGC | 0.192 | 0.0655 / 0.0643 / 0.133 | 0.0323 / 0.0445 / 0 | 0 / 0 / 0 |
| GGAAACCGCCCGAUC | 0.224 | 0.377 / 0.369 / 0.343 | 0.0808 / 0.0668 / 0.160 | 0.0322 / 0 / 0 |
| GGAAACCGCCCGCAC | 0.160 | 0.115 / 0.0964 / 0.114 | 0.0162 / 0 / 0 | 0 / 0 / 0 |
| GGAAACCGCCCGCCC | 0.144 | 0.0655 / 0 / 0.0952 | 0 / 0.0223 / 0 | 0 / 0 / 0 |
| GGAAACCGCCCGCGC | 0.224 | 0.131 / 0.0643 / 0.190 | 0.0162 / 0 / 0.0601 | 0 / 0 / 0 |
| GGAAACCGCCCGCUC | 0.224 | 0.0655 / 0.0803 / 0.0952 | 0 / 0.0223 / 0.0200 | 0.0322 / 0 / 0.0228 |
| GGAAACCGCCCGGAC | 0.256 | 0.164 / 0.129 / 0.400 | 0.113 / 0.156 / 0.180 | 0.0161 / 0 / 0 |
| GGAAACCGCCCGGCC | 0.176 | 0.0819 / 0.0161 / 0.0952 | 0 / 0 / 0.0200 | 0 / 0 / 0 |
| GGAAACCGCCCGGGC | 0.224 | 0.0819 / 0.145 / 0.0381 | 0 / 0 / 0.0200 | 0 / 0 / 0 |
| GGAAACCGCCCGGUC | 0.288 | 0.442 / 0.241 / 0.286 | 0.0647 / 0.156 / 0.100 | 0.0483 / 0 / 0 |
| GGAAACCGCCCGUAC | 0.304 | 0.197 / 0.289 / 0.400 | 0.146 / 0.0668 / 0.120 | 0.0805 / 0.0303 / 0.114 |
| GGAAACCGCCCGUCC | 0.256 | 0.197 / 0.225 / 0.362 | 0.0970 / 0.134 / 0.180 | 0.0322 / 0.0756 / 0.0684 |
| GGAAACCGCCCGUGC | 0.256 | 0.262 / 0.305 / 0.457 | 0.0647 / 0.0223 / 0.100 | 0.0483 / 0.0605 / 0.0228 |
| GGAAACCGCCCGUUC | 0.224 | 0.164 / 0.386 / 0.286 | 0.162 / 0.0668 / 0.160 | 0 / 0.0756 / 0.0456 |
| GGAAACCGCCCUAAC | 0.304 | 0.0491 / 0.129 / 0.0952 | 0 / 0.0445 / 0.0401 | 0 / 0 / 0 |
| GGAAACCGCCCUACC | 0.304 | 0.0328 / 0.129 / 0.133 | 0 / 0 / 0 | 0 / 0 / 0 |
| GGAAACCGCCCUAGC | 0.224 | 0.0491 / 0.0803 / 0.0952 | 0 / 0 / 0 | 0 / 0 / 0 |
| GGAAACCGCCCUAUC | 0.336 | 0.213 / 0.129 / 0.171 | 0 / 0 / 0.0200 | 0.0161 / 0 / 0 |
| GGAAACCGCCCUCAC | 0.176 | 0.164 / 0.0482 / 0.190 | 0 / 0 / 0 | 0 / 0 / 0 |
| GGAAACCGCCCUCCC | 0.176 | 0.131 / 0.161 / 0.209 | 0 / 0 / 0 | 0 / 0 / 0 |
| GGAAACCGCCCUCGC | 0.208 | 0.0983 / 0.0482 / 0.0952 | 0.0162 / 0.0223 / 0.0200 | 0 / 0 / 0 |
| GGAAACCGCCCUCUC | 0.256 | 0.115 / 0.0803 / 0.152 | 0 / 0 / 0.0200 | 0 / 0 / 0 |
| GGAAACCGCCCUGAC | 0.272 | 0.115 / 0.193 / 0.228 | 0.0162 / 0 / 0.0401 | 0.0161 / 0.0151 / 0 |
| GGAAACCGCCCUGCC | 0.256 | 0.0328 / 0.0321 / 0.0571 | 0.0162 / 0 / 0 | 0 / 0 / 0 |
| GGAAACCGCCCUGGC | 0.144 | 0.0983 / 0.112 / 0.114 | 0.0162 / 0 / 0 | 0.0161 / 0 / 0 |
| GGAAACCGCCCUGUC | 0.0960 | 0.360 / 0.289 / 0.209 | 0 / 0.0445 / 0 | 0.0322 / 0 / 0 |
| GGAAACCGCCCUUAC | 0.208 | 0.491 / 0.386 / 0.419 | 0.0970 / 0.134 / 0.120 | 0.0161 / 0.106 / 0.0912 |
| GGAAACCGCCCUUCC | 0.208 | 0.115 / 0.0964 / 0.0571 | 0 / 0.0223 / 0 | 0 / 0 / 0 |
| GGAAACCGCCCUUGC | 0.224 | 0.0983 / 0.0964 / 0.0381 | 0 / 0 / 0 | 0 / 0 / 0 |
| GGAAACCGCCCUUUC | 0.176 | 0.180 / 0.257 / 0.438 | 0.0970 / 0.156 / 0.160 | 0.0322 / 0 / 0 |
| GGAAACCGCCGAAAC | 0.192 | 0.344 / 0.273 / 0.267 | 0.178 / 0.0891 / 0.120 | 0.0644 / 0 / 0 |
| GGAAACCGCCGAACC | 0.272 | 0.0983 / 0.0482 / 0.0190 | 0 / 0 / 0.0200 | 0 / 0 / 0 |
| GGAAACCGCCGAAGC | 0.256 | 0.0655 / 0.161 / 0.0762 | 0 / 0 / 0 | 0 / 0 / 0 |
| GGAAACCGCCGAAUC | 0.176 | 0.0819 / 0.161 / 0.286 | 0 / 0.0223 / 0.0401 | 0.0161 / 0 / 0 |
| GGAAACCGCCGACAC | 0.192 | 0.393 / 0.353 / 0.324 | 0.146 / 0.0223 / 0.140 | 0.0805 / 0 / 0 |
| GGAAACCGCCGACCC | 0.160 | 0.131 / 0.0964 / 0.0381 | 0 / 0 / 0 | 0 / 0 / 0 |
| GGAAACCGCCGACGC | 0.208 | 0.0983 / 0.0643 / 0.0571 | 0 / 0.0223 / 0 | 0 / 0 / 0 |
| GGAAACCGCCGACUC | 0.160 | 0.246 / 0.225 / 0.305 | 0.0808 / 0.0445 / 0.200 | 0.0805 / 0 / 0 |
| GGAAACCGCCGAGAC | 0.160 | 0.131 / 0.112 / 0.0571 | 0.0162 / 0 / 0.0200 | 0 / 0 / 0 |
| GGAAACCGCCGAGCC | 0.256 | 0.0819 / 0.0643 / 0.0571 | 0 / 0 / 0.0200 | 0 / 0 / 0 |
| GGAAACCGCCGAGGC | 0.208 | 0.0819 / 0.112 / 0.133 | 0.0162 / 0 / 0.0200 | 0.0161 / 0 / 0 |
| GGAAACCGCCGAGUC | 0.224 | 0.0491 / 0.0803 / 0.152 | 0.0162 / 0 / 0.0200 | 0 / 0 / 0.0228 |
| GGAAACCGCCGAUAC | 0.224 | 0.278 / 0.193 / 0.381 | 0.0647 / 0.0668 / 0.200 | 0.0483 / 0.0303 / 0.114 |
| GGAAACCGCCGAUCC | 0.224 | 0.0983 / 0.0643 / 0.0381 | 0 / 0 / 0 | 0 / 0 / 0 |
| GGAAACCGCCGAUGC | 0.272 | 0.360 / 0.386 / 0.343 | 0.113 / 0.0223 / 0.100 | 0.0805 / 0 / 0 |
| GGAAACCGCCGAUUC | 0.160 | 0.278 / 0.337 / 0.419 | 0.162 / 0.0891 / 0.100 | 0.0322 / 0.0151 / 0.0684 |
| GGAAACCGCCGCAAC | 0.256 | 0.0819 / 0.0643 / 0.0762 | 0 / 0.0445 / 0 | 0.0161 / 0 / 0 |
| GGAAACCGCCGCACC | 0.304 | 0.147 / 0.0964 / 0.133 | 0.0162 / 0 / 0 | 0 / 0 / 0 |
| GGAAACCGCCGCAGC | 0.192 | 0.0819 / 0 / 0.0952 | 0 / 0 / 0 | 0 / 0 / 0 |
| GGAAACCGCCGCAUC | 0.112 | 0.426 / 0.273 / 0.343 | 0 / 0.0223 / 0.0601 | 0.0161 / 0 / 0 |
| GGAAACCGCCGCCAC | 0.192 | 0.0819 / 0.0803 / 0.171 | 0.0162 / 0 / 0.0401 | 0 / 0 / 0 |
| GGAAACCGCCGCCCC | 0.352 | 0.131 / 0.177 / 0.133 | 0.0162 / 0 / 0 | 0 / 0 / 0 |
| GGAAACCGCCGCCGC | 0.224 | 0.213 / 0.129 / 0.0571 | 0.0323 / 0 / 0.0200 | 0.0161 / 0.0151 / 0 |
| GGAAACCGCCGCCUC | 0.0640 | 0.0655 / 0.0964 / 0.114 | 0.0162 / 0 / 0.0200 | 0 / 0 / 0 |
| GGAAACCGCCGCGAC | 0.128 | 0.0983 / 0.112 / 0.171 | 0 / 0.0445 / 0.0601 | 0 / 0 / 0 |
| GGAAACCGCCGCGCC | 0.208 | 0.115 / 0.0482 / 0.152 | 0 / 0.0223 / 0 | 0 / 0 / 0 |